Laboratory results published in patent US20240197701A1, “ANDROGEN RECEPTOR INHIBITION TO TREAT SEPSIS AND SHOCK” (priority 2021, published 2024).

Tested on: COVID-19
Assay: Randomized, double-blind, placebo-controlled trial of proxalutamide in hospitalized COVID-19 patients (NCT04728802)
Conditions: among males taking proxalutamide

## proxalutamide
  Spontaneous erection: 2.2%
